Anti-infective test results gathered from many reports (values: NIAID ChemDB through PubChem).

Shared fields: tests in culture; species: Mycobacterium tuberculosis

Blank or dashed fields: not listed here.

| SMILES | strain or isolate | changes | method | measure | dose | result |
|---|---|---|---|---|---|---|
| Clc1ccccc1CCNCCNC1CCCCCCC1 |  |  |  | MIC |  | 50 µM |
| CO[C@H]1/C=C/O[C@@]2(C)Oc3c(C)c(O)c4c(=O)c(c5oc6cc(N7CCN(CC(C)C)CC7)cc(=O)c6nc5c4c3=C2O)NC(=O)/C(C)=C\C=C\[C@H](C)[C@H](O)[C@@H](C)[C@@H](O)[C@@H](C)[C@H](OC(C)=O)[C@@H]1C | 2237 (rifampicin-susceptible) |  |  | MBC |  | 0.007 µg/mL |
| O=c1[nH]c2cc([N+](=O)[O-])ccc2c(O)c1N=Nc1ccc(F)cc1 | H37Rv |  | resazurin | MIC |  | <6.25 µg/mL |
| O=C(N/N=C/c1ccc([N+](=O)[O-])o1)c1ccc(F)cc1 | H37Rv |  |  | MIC |  | >6.25 µg/mL |
| CO[C@H]1/C=C/O[C@@]2(C)Oc3c(C)c(O)c4c(O)c(c5c(c4c3C2=O)NC2(CCN(CC(C)C)CC2)N=5)=NC(=O)/C(C)=C\C=C\[C@H](C)[C@H](O)[C@@H](C)[C@@H](O)[C@@H](C)[C@H](OC(C)=O)[C@@H]1C | 11 (rifampicin-susceptible) |  |  | MIC |  | ≤0.062 µg/mL |
| CO[C@H]1/C=C/O[C@@]2(C)Oc3c(C)c(O)c4c(O)c(c(/C=N/N5CCN(C6CCCC6)CC5)c(O)c4c3C2=O)NC(=O)/C(C)=C\C=C\[C@H](C)[C@H](O)[C@@H](C)[C@@H](O)[C@@H](C)[C@H](O)[C@@H]1C | Isolate 880902 rifampicin-resistant |  |  | MIC |  | >64 µg/mL |
| Cc1cc(-c2cc3c(cc2F)c(=O)c(C(=O)O)cn3C2CC2)cc(C)n1 | 483-8 |  |  | MIC |  | 2 µg/mL |
| O=c1[nH]c2ccccc2c(O)c1N=Nc1cccc(Cl)c1 | H37Rv |  | resazurin | MIC |  | >6.25 µg/mL |
| CCOC(=O)C1CC(=O)C2/C(=C(\O)c3ccccc3)C=C([N+](=O)[O-])C1C2[N+](=O)[O-] | H37Rv |  | resazurin | inhibition | 6.25 µg/mL | 7% |
| CCOC(=O)Nc1cc2c(cn1)N=C(c1ccccc1)[C@H](C)N2 | H37Rv |  |  | EC50 |  | >12.5 µg/mL |
| CN(C)CCCN1c2ccccc2Sc2ccc(Cl)cc21 | Isolate D (drug-resistant) |  |  | MBC |  | 30 µg/mL |
| CCOC(=O)Nc1cc(N)c([N+](=O)[O-])c(N[C@H](C)/C(=C\O)c2ccc(O)cc2)n1 | H37Rv |  |  | inhibition | 12.5 µg/mL | 1% |
| O=c1[nH]c2c(Cl)ccc(Cl)c2c(O)c1N=Nc1cccc(Cl)c1 | H37Rv |  | resazurin | inhibition | 6.25 µg/mL | 32% |
| Cc1ccccc1CSc1ccncc1 | H37Rv |  |  | inhibition | 6.25 µg/mL | 0% |
| CCCCCc1cc(OC)c2ccccc2n1 | MT5 |  |  | MIC |  | 12.5 µg/mL |
| O=C1C2=C(c3ccccc31)C(c1ccc(Cl)cc1)NC(=S)N2 | H37Rv |  | BACTEC | inhibition | 12.5 µg/mL | 75% |
| CO[C@H]1/C=C/O[C@@]2(C)Oc3c(C)c(O)c4c(O)c(c5c(c4c3C2=O)NC2(CCN(CC(C)C)CC2)N=5)=NC(=O)/C(C)=C\C=C\[C@H](C)[C@H](O)[C@@H](C)[C@@H](O)[C@@H](C)[C@H](OC(C)=O)[C@@H]1C | H37Rv |  |  | MIC |  | 0.016 µg/mL |
| O=c1[nH]c2c([N+](=O)[O-])cccc2c(O)c1N=Nc1ccc(F)c(Cl)c1 | H37Rv |  | resazurin | inhibition | 6.25 µg/mL | 85% |
| O=C(N/N=C/c1ccc([N+](=O)[O-])s1)c1ccc(F)cc1 | H37Rv |  |  | inhibition | 6.25 µg/mL | 99% |
| CC(CNCC(c1ccccc1)c1ccccc1)NCCC(c1ccccc1)c1ccccc1 |  |  |  | MIC |  | 50 µM |
| COC(=O)c1nc(N)[nH]c(=O)c1CCCCCc1c(C(=O)OC)nc(N)[nH]c1=O | H37Rv |  | BACTEC | MIC bound |  | >12.5 µg/mL |
| CCOC(=O)Nc1cc2c(c(N)n1)N=C(c1ccccc1)CS2 | H37Rv |  |  | EC50 |  | <12.5 µg/mL |
| CO/C(C)=C1/NC(=O)[C@H]([C@@H](C)O)NC(=O)c2csc(n2)-c2cc(O)c(-c3nc(C(=O)NCCCN4CCOCC4)cs3)nc2-c2csc(n2)[C@@H]2COC(=O)c3c4c5c(cccc5n3O)COC(=O)[C@@H](O[C@H]3C[C@](C)(O)[C@H](N(C)C)[C@H](C)O3)[C@@H](OC4)[C@H](NC(=O)c3csc1n3)c1nc(cs1)C(=O)N2 | Clinical isolate 1868 | Rifampicin- and isoniazid-resistant | broth dilution | MIC |  | ≤2.5 µM |
| CO[C@H]1/C=C/O[C@@]2(C)Oc3c(C)c(O)c4c(O)c(c(/C=N/N5CCN(C)CC5)c(O)c4c3C2=O)NC(=O)/C(C)=C\C=C\[C@H](C)[C@H](O)[C@@H](C)[C@@H](O)[C@@H](C)[C@H](OC(C)=O)[C@@H]1C | Isolate 4 |  |  | MIC |  | >32 µg/mL |
| CCOC(=O)Nc1cc2[nH]c(-c3ccc(CC)cc3)nc2c(N(CCc2ccccc2)Cc2ccccc2)n1 | H37Rv |  |  | EC50 |  | <12.5 µg/mL |
| Clc1ccc(Sc2nc(Cl)nc3nc[nH]c23)cc1 | H37Rv |  |  | MIC90 |  | >6.25 µg/mL |
| CCCCCCCCCCCNCCN[C@H](CO)CC(C)C |  |  |  | MIC |  | 50 µM |
| CO[C@H]1/C=C/O[C@@]2(C)Oc3c(C)c(O)c4c(O)c(c(/C=N/N5CCN(C/C=C/c6ccccc6)CC5)c(O)c4c3C2=O)NC(=O)/C(C)=C\C=C\[C@H](C)[C@H](O)[C@@H](C)[C@@H](O)[C@@H](C)[C@H](OC(C)=O)[C@@H]1C | 2624 (rifampin-sensitive) |  |  | MIC |  | 0.025 µg/mL |
| COc1ccccc1Sc1ccncc1 | H37Rv |  |  | MIC90 |  | >6.25 µg/mL |
| C[C@@H]1CN(c2c(F)c(N)c3c(=O)c(C(=O)O)cn(C4CC4)c3c2F)C[C@H](C)N1 | Isolate 3 |  |  | MIC |  | 0.5 µg/mL |
| OCc1ccccc1Sc1ccccc1CNCCNCCc1ccc(F)cc1 |  |  |  | MIC |  | 50 µM |
| Cc1cccc(CSc2ccccn2)c1 | H37Ra |  |  | MIC |  | >12.8 µg/mL |
| CC(C)CC(C)NCCNCCCCc1ccccc1 |  |  |  | MIC |  | 50 µM |
| C[C@H]1COc2c(N3CCN(C)CC3)c(F)cc3c(=O)c(C(=O)O)cn1c23 | 001-010 (drug-resistant) |  |  | MBC |  | 1 µg/mL |
| CCC(C)(C)NCCNCc1ccc(OC)c(OC)c1 |  |  |  | MIC |  | 25 µM |
| CO/C(C)=C1/NC(=O)[C@H]([C@@H](C)O)NC(=O)c2csc(n2)-c2cc(O)c(-c3nc(C(=O)NCCc4c[nH]cn4)cs3)nc2-c2csc(n2)[C@@H]2COC(=O)c3c4c5c(cccc5n3O)COC(=O)[C@@H](O[C@H]3C[C@](C)(O)[C@H](N(C)C)[C@H](C)O3)[C@@H](OC4)[C@H](NC(=O)c3csc1n3)c1nc(cs1)C(=O)N2 | Clinical Isolate 913 |  | broth dilution | MIC |  | 10–100 µM |
| CCCCCCCCCCCNCCNCc1ccc(OC)cc1OC |  |  |  | MIC |  | 25 µM |
| O=c1nc(SCc2cccnc2)c2[nH]cnc2[nH]1 | H37Rv |  |  | MIC90 |  | >6.25 µg/mL |
| CO[C@H]1/C=C/O[C@@]2(C)Oc3c(C)c(O)c4c(O)c(c(/C=N/N5CCN(C)CC5)c(O)c4c3C2=O)NC(=O)/C(C)=C\C=C\[C@H](C)[C@H](O)[C@@H](C)[C@@H](O)[C@@H](C)[C@H](OC(C)=O)[C@@H]1C | Clinical isolate 12556 |  | broth dilution | MIC |  | ≤0.1 µM |
| c1ccc(CSc2ccccn2)cc1 | H37Rv |  |  | MIC90 |  | >6.25 µg/mL |
| NNC(=O)c1ccncc1 | Isolate 9 |  |  | MIC |  | 2 µg/mL |
| COc1ccc(CSc2ncnc3nc[nH]c23)cc1 | H37Ra |  |  | MIC |  | >12.8 µg/mL |
| CO[C@H]1/C=C/O[C@@]2(C)Oc3c(C)c(O)c4c(O)c(c5c(c4c3C2=O)NC2(CCN(CC(C)C)CC2)N=5)=NC(=O)/C(C)=C\C=C\[C@H](C)[C@H](O)[C@@H](C)[C@@H](O)[C@@H](C)[C@H](OC(C)=O)[C@@H]1C | Strain 122 (D516Y) |  |  | MIC |  | 0.25 µg/mL |
| NC(=O)c1c(Cl)nsc1Cl | H37Rv |  | BACTEC | inhibition | 12.5 µg/mL | 4% |
| NNC(=O)c1ccncc1 | H37Rv |  | broth dilution | MIC |  | ≤0.2 µM |
| CC(C)N=c1cc2n(-c3ccc(Cl)cc3)c3ccccc3nc-2cc1Nc1ccc(Cl)cc1 | MDR22 |  | broth dilution / resazurin | MIC |  | 0.25 µg/mL |
| O=C(N/N=C/c1ccc([N+](=O)[O-])s1)c1ccccc1 | H37Rv |  |  | MIC |  | <6.25 µg/mL |
| C[C@@H]1[C@H]2C[C@@H](C[C@H]1NCCNCCCCc1ccccc1)C2(C)C |  |  |  | MIC |  | 50 µM |
| C[C@H]1COc2c(N3CCN(C)CC3)c(F)cc3c(=O)c(C(=O)O)cn1c23 | ATCC35838 |  |  | MIC |  | 0.25 µg/mL |
| COc1ccccc1CSc1ncnc2nc[nH]c12 | H37Ra |  |  | MIC |  | >12.8 µg/mL |
| CCOC(=O)Nc1cc2c(cn1)N=C(CN(C)c1ccc(OC)cc1)CN2 | H37Rv |  |  | inhibition | 12.5 µg/mL | 20% |
| O=c1[nH]c2c(Cl)ccc(Cl)c2c(O)c1N=Nc1ccc(F)cc1 | H37Rv |  | resazurin | inhibition | 6.25 µg/mL | 80% |
| O=C(N/N=C/c1ccc([N+](=O)[O-])s1)c1ccc([N+](=O)[O-])cc1 | H37Rv |  |  | EC50 |  | <6.25 µg/mL |
| CCOC(=O)Nc1cc(NCc2ccc(S(N)(=O)=O)cc2)c2nccnc2n1 | H37Rv |  |  | EC50 |  | >12.5 µg/mL |
| CC1CN(c2cc3c(cc2F)c(=O)c(C(=O)O)cn3-c2ccc(F)cc2F)CCN1 | ATCC 35823 |  |  | MBC |  | 2 µg/mL |
| Cc1cccc(C)c1N=Nc1c(O)c2cc(Cl)ccc2[nH]c1=O | H37Rv |  | resazurin | MIC |  | >6.25 µg/mL |
| C=C(NC(=O)c1csc(-c2nc3c(cc2O)-c2nc(cs2)C(=O)N[C@@H]([C@@H](C)O)C(=O)N/C(=C(\C)OC)c2nc(cs2)C(=O)N[C@@H]2c4nc(cs4)C(=O)N[C@@H](COC(=O)c4c5c6c(cccc6n4O)COC(=O)[C@@H](O[C@H]4C[C@](C)(O)[C@H](N(C)C)[C@H](C)O4)[C@H]2OC5)c2nc-3cs2)n1)C(N)=O | Clinical isolate 7791 | Isoniazid-resistant | broth dilution | MIC |  | ≤2.5 µM |
| C[C@@H]1CN(c2c(F)c(N)c3c(=O)c(C(=O)O)cn(C4CC4)c3c2F)C[C@H](C)N1 | ATCC 35828 |  |  | MBC |  | 0.06 µg/mL |
| CO[C@H]1/C=C/O[C@@]2(C)Oc3c(C)c(O)c4c(=O)c(c5oc6cc(N7CCN(C(C)C)CC7)cc(=O)c6nc5c4c3=C2O)NC(=O)/C(C)=C\C=C\[C@H](C)[C@H](O)[C@@H](C)[C@@H](O)[C@@H](C)[C@H](OC(C)=O)[C@@H]1C | 2227 (rifampin-resistant) |  |  | MIC |  | 0.1 µg/mL |
| CC[C@H]1OC(=O)[C@H](C)[C@@H](O[C@H]2C[C@@](C)(OC)[C@@H](O)[C@H](C)O2)[C@H](C)[C@@H](O[C@@H]2O[C@H](C)C[C@H](N(C)C)[C@H]2O)[C@](C)(O)C[C@@H](C)C(=O)[C@H](C)[C@@H](O)[C@]1(C)O | ATCC 35826 |  |  | MBC |  | >8 µg/mL |
| COc1ccc(CCC2CCc3ccccc3N2C)cc1OC | MT3 |  |  | MIC |  | >322 µg/mL |

Repeating the first 9 entries:

SMILES	strain or isolate	changes	method	measure	dose	result
Clc1ccccc1CCNCCNC1CCCCCCC1				MIC		50 µM
CO[C@H]1/C=C/O[C@@]2(C)Oc3c(C)c(O)c4c(=O)c(c5oc6cc(N7CCN(CC(C)C)CC7)cc(=O)c6nc5c4c3=C2O)NC(=O)/C(C)=C\C=C\[C@H](C)[C@H](O)[C@@H](C)[C@@H](O)[C@@H](C)[C@H](OC(C)=O)[C@@H]1C	2237 (rifampicin-susceptible)			MBC		0.007 µg/mL
O=c1[nH]c2cc([N+](=O)[O-])ccc2c(O)c1N=Nc1ccc(F)cc1	H37Rv		resazurin	MIC		<6.25 µg/mL
O=C(N/N=C/c1ccc([N+](=O)[O-])o1)c1ccc(F)cc1	H37Rv			MIC		>6.25 µg/mL
CO[C@H]1/C=C/O[C@@]2(C)Oc3c(C)c(O)c4c(O)c(c5c(c4c3C2=O)NC2(CCN(CC(C)C)CC2)N=5)=NC(=O)/C(C)=C\C=C\[C@H](C)[C@H](O)[C@@H](C)[C@@H](O)[C@@H](C)[C@H](OC(C)=O)[C@@H]1C	11 (rifampicin-susceptible)			MIC		≤0.062 µg/mL
CO[C@H]1/C=C/O[C@@]2(C)Oc3c(C)c(O)c4c(O)c(c(/C=N/N5CCN(C6CCCC6)CC5)c(O)c4c3C2=O)NC(=O)/C(C)=C\C=C\[C@H](C)[C@H](O)[C@@H](C)[C@@H](O)[C@@H](C)[C@H](O)[C@@H]1C	Isolate 880902 rifampicin-resistant			MIC		>64 µg/mL
Cc1cc(-c2cc3c(cc2F)c(=O)c(C(=O)O)cn3C2CC2)cc(C)n1	483-8			MIC		2 µg/mL
O=c1[nH]c2ccccc2c(O)c1N=Nc1cccc(Cl)c1	H37Rv		resazurin	MIC		>6.25 µg/mL
CCOC(=O)C1CC(=O)C2/C(=C(\O)c3ccccc3)C=C([N+](=O)[O-])C1C2[N+](=O)[O-]	H37Rv		resazurin	inhibition	6.25 µg/mL	7%

a–b is a range or a potency band. MIC50, MIC90 and the like: level of inhibition, or share of isolates inhibited. ECn is the concentration giving n% inhibition of infection, replication or growth. Rows are shuffled and stem from different studies. MIC bound: limit read from a one-dose screen. Percent inhibition refers to the dose given; in toxicity tests it is the harm to the cells.